Measurements reported in patent publication US20250382354A1 (INSTITUTE FOR RESEARCH IN BIOMEDICINE IRB, published 2025).
Where two headings read alike, the source gives them in different places.

B1: fp.006 (antibody, V domains shown)
VH: VQLVESGGGVVQPGGSLRLSCAASGFNFNNYALHWVRQAPGKGLEWVAIISYEARNKKYGVSVMGRFSISRDNSKSIMYLEMNSLRVEDTGVYYCARDLFLSDYDRSGYDPTRGGFDHWGQGTLVTVSS
VL: EIVMTQSPATLSVSPGERATLSCRASQSVSSSLAWYQHRFGQAPRLLISGASTRATGIPGRFSGSGSGTEFTLTISSLQSEDVAVYYCQQYGDWPLVTFGGGTKVEIK
B2: fp.007 (antibody, V domains shown)
VH: EVQLVESGGGLVKPGGSLRLSCAGTGFIFSDAWMTWVRQAPGKGLEWVGRIKSKADGGTTDYAAPVKGRFTISRDDSKNTLYLEINSLKTEDTAVYYCTTGRSRYCIGAVCYYFDHWGQGTLVTVSS
VL: not shown
B3: fp.009 (antibody, V domains shown)
VH: VQLVESGGGVVQPGTSLTLSCEASGFTFSNYAMHWVRQAPGKGLEWVAIISFDTRNKKFAGSVQGRFSISRDNAKNSIYLQMNNLRPEDTGIYYCARDVFLSDYDSRGFDRTRGGFDYWGQGTLVTVSS
VL: EIVMTQSPATLSVSPGEKATLSCRASESVGSSLAWYQQKLGQAPRLLIYGASTRATGIPARFSGSGSGAEFTLTISSLQSEDFAIYYCQQYGDWPLLTFGGGTKVEIK
B4: hr2.016 (antibody, V domains shown)
VH: EVQLLESGGGLVQPGGSLRLSCAASGFMFSKYAMTWVRQTPGKGLEWVSVISGGGGSTYYADSVKGRFTISRDNSKNTLYLQMNSLRAEDTAVYYCAKLLVVFVIDYWGQGALVTVSS
VL: EIVLTQSPGTLSLSPGERATLFCRASQSVSSNLAWYQQKPGRAPRLLISGASSRATGIPDRFSGSGSGTDFTLTISRLEPEDFAVYYCQQYGSSPPTFGQGTKVEIK
B5: hr2.023 (antibody, V domains shown)
VH: QVQLVQSGAEVKKPGASVKVSCRASENIFSDSYLHWVRQAPGQGLEWMGIITPSGDKTFYAQQFQGRLTMTRDTPTNTLHMDLRGLTSADTAIYYCARQATKGGWDYWGQGTLVTVSS
VL: EIVLTQSPGTLSLSPGESATLSCRASQSVTRNYLAWYQQQPGQAPRLLIYGASNRATGVPDRFSGSGSGTDFTLTISRLEPEDFAVYYCQQYGSSPPTFIFGPGTKVDIK
B6: fp.011 (antibody, V domains shown)
VH: EVQLLESGGGLVQPGGSLRLSCAGSGFTFNNYAMTWVRQAPGRGLEWVSAISGSGGSSHYADSVKGRFTITRDNSKNTLYLQMNSLRAEDTAVYYCAFIDYYSGWSYYYGLDVWGQGTTVTVSS
VL: EIVLTQSPATLSLSPGERATLSCRASQGVRTYVAWYQQKPGQAPRLLIYDASNRATGIPARFSGSGSGTDFTLTISSLEPEDFAVYYCQQRYNWPLCSFGQGTKLEIK
B7: sd1.040 (antibody, V domains shown)
VH: QVQLVQSGAEVKKPGASVKVSCKASGYTFTSFYIHWVRQAPGQGLEWMGIIDPSGGSTSYPQKFQGRVTMTRDTSTSTVYMDLSSLRSEDTAVYYCTRDGSAGDNSWFDPWGQGTLVTVSS
VL: DIVMTQSPDSLAVSLGERATINCKSSRNVLYSSNNKNYLAWYQQKPGQPPKLLIYWASARESGVPDRFSGSGSGTDFTLTISSLQAEDVAVYYCQQYYNTPYTFGQGTKLEIK

How the values were obtained:
[1] = biological target: T1, CRCoV-240/05 FP peptide (CRCoV-240/05); assay: peptide ELISA
T1 construct: domain: FP peptide

[2] = biological target: C-terminally truncated SARS-CoV-2 S protein, Omicron BA.1 (SARS-CoV-2 Omicron BA.1); assay: cell-based or functional assay
[3] = biological target: C-terminally truncated SARS-CoV-2 S protein, Beta (SARS-CoV-2 Beta); assay: cell-based or functional assay
[4] = biological target: C-terminally truncated SARS-CoV-2 S protein, Omicron BA.2.75 (SARS-CoV-2 Omicron BA.2.75); assay: cell-based or functional assay
[5] = biological target: C-terminally truncated SARS-CoV-2 S protein, Omicron BA.2.75.2 (SARS-CoV-2 Omicron BA.2.75.2); assay: cell-based or functional assay
[6] = biological target: C-terminally truncated SARS-CoV-2 S protein, Gamma (SARS-CoV-2 Gamma); assay: cell-based or functional assay
[7] = biological target: C-terminally truncated SARS-CoV-2 S protein, Delta (SARS-CoV-2 Delta); assay: cell-based or functional assay
[8] = biological target: C-terminally truncated SARS-CoV-2 S protein, Alpha (SARS-CoV-2 Alpha); assay: cell-based or functional assay
[9] = biological target: MERS S ectodomain (MERS); assay: ELISA on coated S
[10] = biological target: C-terminally truncated SARS-CoV-2 S protein, Omicron BA.2 (SARS-CoV-2 Omicron BA.2); assay: cell-based or functional assay
[11] = biological target: MERS S ectodomain (MERS)
[12] = biological target: T1, CRCoV-240/05 FP peptide
[13] = biological target: T2, CRCoV-240/05 HR2 peptide (CRCoV-240/05); assay: peptide ELISA
T2 construct: domain: HR2 peptide

[14] = biological target: SARS-CoV-2 S of the Omicron BA.2 pseudovirus (SARS-CoV-2 Omicron BA.2); assay: cell-based or functional assay
[15] = biological target: SARS-CoV-2 S of the Omicron BA.1 pseudovirus (SARS-CoV-2 Omicron BA.1); assay: cell-based or functional assay
[16] = biological target: SARS-CoV-2 S of the Delta pseudovirus (SARS-CoV-2 Delta); assay: cell-based or functional assay
[17] = biological target: SARS-CoV-2 S of the Omicron BA.2.75.2 pseudovirus (SARS-CoV-2 Omicron BA.2.75.2); assay: cell-based or functional assay
[18] = biological target: SARS-CoV-2 S of the Gamma pseudovirus (SARS-CoV-2 Gamma); assay: cell-based or functional assay
[19] = biological target: SARS-CoV-2 S of the Omicron BA.2.75 pseudovirus (SARS-CoV-2 Omicron BA.2.75); assay: cell-based or functional assay
[20] = biological target: SARS-CoV-2 S of the Omicron BA.4/BA.5 pseudovirus (SARS-CoV-2 Omicron BA.4/BA.5); assay: cell-based or functional assay
[21] = biological target: SARS-CoV-2 S of the Beta pseudovirus (SARS-CoV-2 Beta); assay: cell-based or functional assay
[22] = biological target: SARS-CoV-2 S of the Alpha pseudovirus (SARS-CoV-2 Alpha); assay: cell-based or functional assay

| Binder | Omicron BA.1 Pseudovirus IC50 [2] [µg/mL] | Beta Pseudovirus IC50 [3] [µg/mL] | Omicron BA.2.75 Pseudovirus IC50 [4] [µg/mL] | Omicron BA.2.75.2 Pseudovirus IC50 [5] [µg/mL] | Gamma Pseudovirus IC50 [6] [µg/mL] | Delta Pseudovirus IC50 [7] [µg/mL] | Alpha Pseudovirus IC50 [8] [µg/mL] | EC50 [9] [µg/mL] | Omicron BA.2 Pseudovirus IC50 [10] [µg/mL] | further results |
| --- | --- | --- | --- | --- | --- | --- | --- | --- | --- | --- |
| B1 | 19.1 | 29.6 | 80.8 | 30.3 | 0.408 | 42 | 15.6 | 0.0412 | – | EC50 [1]: 0.0149 µg/mL |
| B2 | 9.23 | 42.9 | 12.7 | 14.5 | 0.801 | 3.23 | 5.85 | – | 1.89 | – |
| B3 | – | – | – | – | – | – | – | – | – | EC50 [11]: 0.0515 µg/mL; EC50 [12]: 0.026 µg/mL |
| B4 | 0.454 | 0.484 | 1.08 | 0.867 | 0.000599 | 0.384 | 0.307 | 0.0694 | 0.559 | EC50 [13]: 0.00513 µg/mL |
| B5 | 2.03 | 5.57 | 7.06 | 4.24 | 0.0209 | 1.69 | 4.71 | 0.0516 | 3.6 | EC50 [13]: 0.0165 µg/mL |
| B6 | – | – | – | – | – | – | – | – | – | EC50 [11]: 0.133 µg/mL; EC50 [12]: 0.0214 µg/mL |
| B7 | – | – | – | – | – | – | – | – | – | Omicron BA.2 Pseudovirus IC50 [14]: 1.44 µg/mL; Omicron BA.1 Pseudovirus IC50 [15]: 1 µg/mL; Delta Pseudovirus IC50 [16]: 3.72 µg/mL; Omicron BA.2.75.2 Pseudovirus IC50 [17]: 4.49 µg/mL; Gamma Pseudovirus IC50 [18]: 0.0664 µg/mL; Omicron BA.2.75 Pseudovirus IC50 [19]: 4.02 µg/mL; Omicron BA.4/BA.5 Pseudovirus IC50 [20]: 1.36 µg/mL; Beta Pseudovirus IC50 [21]: 2.35 µg/mL; Alpha Pseudovirus IC50 [22]: 5.84 µg/mL |
